Results on one sequence are retold here after article PMC12584642.

Construct, isoform or probe ends are uncertain for at least one entry.

The series concerns the target ArcA-P (phosphorylated ArcA) (Klebsiella pneumoniae W14) (UniProt A6TI15). Briefly: EMSA. The settings on record: ArcA phosphorylated with acetyl phosphate, poly IC competitor; 10 mM Tris-HCl pH 8.0, 1 mM EDTA, 1 mM DTT, 50 mM KCl, 1.5 mg/mL poly IC, 50 ug/mL BSA, 10% glycerol; recombinant protein; protein details: His6 (pET28a); label: none (ethidium bromide stain); probe letters rebuilt from the primers and the genome.

For the sequence “AGGATGATCACCAGCATGCCCAACATGATGACCATCTTTAATCCGTTAAGTGTAATAATGGGTTTAGCCATAGGATCCCGACCTCAAACTTCCTTGCCTATTAACAGGTTGCGTTACATTAGCATAATGACGCTTTTTTGCAGAACAAACGCATTGAAGAAAAACCGCGGCGTAAAGAATTGCAAAGTCTTTGAATTAAATGTAGCACTATGCTACAAATCTACCTGTGTTTAACTACTGAGGACAATTTTCATCCGCACCGGACGAGAAGCAACACCGCGGATAATTGTAATTTTATGGACAATCAGTTCAGGATGTATATTTTAAATCACCCCGCAGTATCCCTCACTTTTTCCCGTTTTGCCGGCGAACAGCACTGGCATTCGGCGCTATAGTCACCTTCTTTCTGCCTGAGCTGGCGCCAAGCGCACAGCGATATCTACGTCAGAAATTTTCCTGTTTACGTCTCGCGTAAACGGTAATGGATTATATTCTCAAGCAGGAGAAGGGATCATGTTTTATTGGATTTTATTAGCTTTAGCAATTATTGCTGAAATTACCGGCACCTTGTCTA (double strand) [kpnEF promoter region fragment, 574 bp]”, the binding result is “binds”.
